Measured values from several laboratories, pooled; numbers as filed in NIAID ChemDB.

Common to all: growth or infection tests; agent: Mycobacterium fortuitum

MIC50, MIC90 and the like: level of inhibition, or share of isolates inhibited. Conditions beyond the fields shown may differ between rows. a–b is a range or a potency band. An empty or dashed field is not shown.

smiles | conditions | read by | strain or isolate | measure | value
COc1ccc(C2=Nc3c(N)nc(N)nc3NC(c3ccc4c(c3)OCO4)C2)cc1 | clinical isolate | MTT / broth dilution / absorbance | MNT1073 | MIC | >32 µg/mL
CCn1cc(C(=O)O)c(=O)c2cc(Cl)c(-c3nccs3)cc21 | - | - | - | MIC | 12.5 µg/mL
CCOC(=O)/C(N=Nc1ccc(-c2n[nH]c(=O)n2-c2ccccc2)cc1)=C(\C)O | - | - | ATCC 6841 | MIC | 32 µg/mL
CC(C)N=c1cc2n(-c3ccc(Cl)cc3)c3ccccc3nc-2cc1Nc1ccc(Cl)cc1 | - | - | 8521 | MIC | 13.3 µg/mL
Cc1ccc(/C=N/n2c(C)nc3onc(C)c3c2=O)cc1 | - | resazurin | PCM 672 | MIC90 | >100 µg/mL
CCC(C)(C)c1ccc(/C=N/N=C(\N)c2ccc3ccccc3n2)cc1 | - | - | NCTC 10394 | MIC | 8–16 µg/mL
CCC(C)(C)c1ccc(/C=N/N=C(\N)c2ccccn2)cc1 | - | - | - | MIC | 8–10 µg/mL
CCn1cc(C(=O)O)c(=O)c2ccc(-c3csc(C)n3)cc21 | - | - | - | MIC | 3.12 µg/mL
Cc1c(F)c(N2CCNC(C)C2)cc2c1c(=O)c(C(=O)O)cn2C1CC1 | - | - | 20 strains | MIC90 | 25 µg/mL
CC[C@H]1OC(=O)[C@H](C)[C@@H](O[C@H]2C[C@@](C)(OC)[C@@H](O)[C@H](C)O2)[C@H](C)[C@@H](O[C@@H]2O[C@H](C)C[C@H](N(C)C)[C@H]2O)[C@](C)(O)C[C@@H](C)C(=O)[C@H](C)[C@@H](O)[C@]1(C)O | - | - | ATCC 6841 | MIC | >8 µg/mL
CC1COc2c(N3CCN(C)CC3)c(F)cc3c(=O)c(C(=O)O)cn1c23 | - | - | 18367 | MIC50 | 3.13 µg/mL
O=C(O)c1ccc(Nc2nnc(-c3ccncc3)s2)cc1O | - | broth dilution | ATCC 6841 | MIC | >128 µg/mL
C[C@@H]1CN(c2c(F)c(N)c3c(=O)c(C(=O)O)cn(C4CC4)c3c2F)C[C@H](C)N1 | - | - | 25 isolates | MIC90 | 2 µg/mL
CCC(C)Sc1ccnc(C(N)=S)c1 | - | - | 1021 | MIC | 500 µM
C[C@H]1[C@H](C)CC[C@]2(C(=O)O)CC[C@]3(C)C(CC[C@@H]4[C@@]5(C)C[C@H](O)CC(C)(C)[C@@H]5CC[C@]43C)[C@H]12 | - | resazurin | - | MIC | 100 µg/mL
COc1cc(/C=N/N=C(\N)c2ccccn2)cc(OC)c1 | - | - | - | MIC | 256 µg/mL
CSc1nc(N)c2c(n1)NC(c1ccccc1)CC(c1ccc3c(c1)OCO3)=N2 | clinical isolate | MTT / broth dilution / absorbance | MNT1073 | MIC | >32 µg/mL
CC1COc2c(N3CCN(C)CC3)c(F)cc3c(=O)c(C(=O)O)cn1c23 | - | - | 25 isolates | MIC50 | 2 µg/mL
CCCCCCCCCCCCSc1ccnc(C(N)=S)c1 | - | - | 1021 | MIC | 2000 µM
O=C(O)c1ccc(NC(=O)C(F)(F)F)cc1O | - | broth dilution | ATCC 6841 | MIC | >128 µg/mL
CO[C@@]1(NC(=O)CSCC#N)C(=O)N2C(C(=O)O)=C(CSc3nnnn3C)CS[C@@H]21 | - | - | 914-8 | MIC | 3.12 µg/mL
CCn1cc(C(=O)O)c(=O)c2ccc(C3SCC(C)N3C)cc21 | - | - | - | MIC | 50 µg/mL
COc1cc(/C=N/N=C(\N)c2ccccn2)cc(OC)c1OC | - | - | - | MIC | 256 µg/mL
CC(C)c1ccc(/C=N/N=C(\N)c2ccccn2)cc1 | - | - | NCTC 10394 | MIC | 8–16 µg/mL
Cc1noc(N)c1C(=O)N/N=C/c1ccc(C(F)(F)F)cc1 | - | resazurin | PCM 672 | MIC90 | 62.5 µg/mL
CC(C)(C)Sc1ccnc(C(N)=S)c1 | - | - | 1021 | MIC | 2000 µM
N/C(=N/N=C/c1cccc(Br)c1)c1ccccn1 | - | - | - | MIC | 256 µg/mL
C[C@@H](O)[C@H]1C(=O)N2C(C(=O)O)=C(SCCN=CN)C[C@H]12 | - | - | 1261 | MIC | 3.12 µg/mL
NC[C@@H]1O[C@H](O[C@H]2[C@@H](O)[C@H](O[C@@H]3[C@@H](O)[C@H](N)C[C@H](N)[C@H]3O[C@H]3O[C@H](CN)[C@@H](O)[C@H](O)[C@H]3N)O[C@@H]2CO)[C@H](N)[C@@H](O)[C@@H]1O | - | - | ATCC 6841 | MBC | 64 µg/mL
Cc1c(N2C(=O)CC(=O)N(c3ccc(C(=O)O)c(O)c3)C2=S)c(=O)n(-c2ccccc2)n1C | - | broth dilution | ATCC 6841 | MIC | 64 µg/mL
CCOC(=O)/C(N=Nc1ccc(C(=O)N/N=C\c2ccc(F)cc2)cc1)=C(\C)O | - | - | ATCC 6841 | MIC | 64 µg/mL
CCn1cc(C(=O)O)c(=O)c2ccc(-c3csc(N)n3)cc21 | - | - | - | MIC | 3.12 µg/mL
CN(C)c1ccc(/C=N/N=C(\N)c2ccccn2)c2ccccc12 | - | - | NCTC 10394 | MIC | 8–16 µg/mL
CCOC(=O)/C(N=Nc1ccc(-c2n[nH]c(=S)o2)cc1)=C(\C)O | - | - | ATCC 6841 | MIC | 64 µg/mL
CCn1cc(C(=O)O)c(=O)c2cc(F)c(-c3nc(C)cs3)cc21 | - | - | - | MIC | 12.5 µg/mL
Cc1c(CN2CCN(C)CC2)cc(-c2ccc(Cl)cc2)n1-c1ccc(Cl)cc1 | - | - | 8 strains | MIC | 3.1–12.5 µg/mL
N/C(=N\N=C1CCCCCCCCCCC1)c1ccccn1 | - | - | NCTC 10394 | MIC | >50 µg/mL
COc1ccc(/C=N/n2cnc3onc(C)c3c2=O)cc1 | - | resazurin | PCM 672 | MIC90 | >100 µg/mL
CCn1cc(C(=O)O)c(=O)c2ccc(-c3csc(-c4ccccc4)n3)cc21 | - | - | - | MIC | 1.6 µg/mL
CCn1cc(C(=O)O)c(=O)c2cc(F)c(C3SC(C)C(C)N3C)cc21 | - | - | - | MIC | 50 µg/mL
CO[C@@]1(NC(=O)CCCC(N)C(=O)O)C(=O)N2C(C(=O)O)=C(COC(C)=O)CSC21 | - | - | 914-8 | MIC | 100 µg/mL
CCCCCCCCCCCCCCCCSc1ccnc(C(N)=S)c1 | - | - | 1021 | MIC | 2000 µM
CCn1cc(C(=O)O)c(=O)c2cc(F)c(-c3nc(C)c(C)s3)cc21 | - | - | - | MIC | 6.25 µg/mL
C=CCn1c(-c2ccc(N=N/C(C(=O)OCC)=C(/C)O)cc2)n[nH]c1=S | - | - | ATCC 6841 | MIC | 128 µg/mL
CO[C@@]1(NC(=O)C2SC(=C(C(N)=O)C(=O)[O-])S2)C(=O)N2C(C(=O)[O-])=C(CSc3nnnn3C)CS[C@@H]21 | - | - | 4-May | MIC | 25 µg/mL
N/C(=N\N=C\c1cccc2ccccc12)c1ccccn1 | - | - | NCTC 10394 | MIC | 12.5–25 µg/mL
NCC[C@H](O)C(=O)N[C@@H]1C[C@H](N)[C@@H](O[C@H]2O[C@H](CN)[C@@H](O)[C@H](O)[C@H]2O)[C@H](O)[C@H]1O[C@H]1O[C@H](CO)[C@@H](O)[C@H](N)[C@H]1O | - | - | ATCC 6841 | MBC | >64 µg/mL
N/C(=N\N=C\c1ccc(-c2ccccc2)cc1)c1cnccn1 | - | - | NCTC 10394 | MIC | >64 µg/mL
Cc1noc2ncn(/N=C/c3ccc([N+](=O)[O-])cc3)c(=O)c12 | - | resazurin | PCM 672 | MIC90 | 62.5 µg/mL
O=C(Nc1ccc(C(=O)O)c(O)c1)NC1CCCCC1 | - | broth dilution | ATCC 6841 | MIC | 64 µg/mL
C[C@@H]1CN(c2c(F)c(N)c3c(=O)c(C(=O)O)cn(C4CC4)c3c2F)C[C@H](C)N1 | - | - | 20 strains | MIC50 | 1.56 µg/mL
Cc1ccc(/C=N/N=C(/N)c2ccccn2)c(C)c1 | - | - | - | MIC | 128 µg/mL
NC1CCN(c2c(F)cc3c(=O)c(C(=O)O)cn(C4CC4)c3c2Cl)C1 | - | - | 25 isolates | MIC50 | 0.5 µg/mL
C[C@@H]1CN(c2c(F)c(N)c3c(=O)c(C(=O)O)cn(C4CC4)c3c2F)C[C@H](C)N1 | - | broth dilution / visual reading | ATCC 6841 | MIC | 0.3 µg/mL
CCCCCCCSc1ccnc(C(N)=S)c1 | - | - | 1021 | MIC | 125 µM
Nc1nc(N)c2c(n1)NC(c1ccc3c(c1)OCO3)CC(c1ccc(F)cc1)=N2 | clinical isolate | MTT / broth dilution / absorbance | MNT1073 | MIC | >32 µg/mL
CCCCCCCCCCSc1ccnc(C(N)=S)c1 | - | - | 1021 | MIC | 1000 µM
O=C(O)c1ccc(-n2c(-c3ccncc3)n[nH]c2=S)cc1O | - | broth dilution | ATCC 6841 | MIC | >128 µg/mL
C[C@H]1COc2c(N3CCN(C)CC3)c(F)cc3c(=O)c(C(=O)O)cn1c23 | - | - | ATCC 6841 | MIC | 4 µg/mL
CCCCSc1ccnc(C(N)=S)c1 | - | - | 1021 | MIC | 250 µM